{"source": "paper PMC5056392", "about": "“CD4-mimetic sulfopeptide conjugates display sub-nanomolar anti-HIV-1 activity and protect macaques against a SHIV162P3 vaginal challenge” (Scientific Reports, 2016)", "key": {"TZM-bl cells": {"system": "TZM-bl cells", "test": "WST-1 cytotoxicity assay", "format": "cell-based", "conditions": "Table 1, 50% cytotoxic concentration, WST-1, 48 h", "in_short": "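TZM-bl cells (10^4 cells/well) exposed to serially diluted compound for 48 h. Viability by WST-1 reduction, absorbance at 450 nm, relative to untreated cultures; CC50 from non-linear regression.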"}, "[1]": {"test": "Storage stability in HEC gel", "format": "physicochemical", "conditions": "formulated in HEC gel, stored at −20 °C; data not shown"}, "HIV-1 IIIB": {"system": "HIV-1 IIIB", "format": "cell-based", "conditions": "Table 1; B-X4; TZM-bl cells, 48 h, luciferase; means of two experiments", "in_short": "(§1)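 TZM-bl cells (CD4/CCR5/CXCR4, HIV LTR-luciferase reporter) with 30 μg/mL DEAE dextran were preincubated with 10-fold serial dilutions of mCD4 conjugates, then infected with virus at 50, 100 or 200 TCID50. After 48 h at 37 °C, luciferase RLU was read as % of compound-free control; IC50 by non-linear regression.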"}, "HIV-1 Ca10-3 (CRF01)": {"system": "HIV-1 Ca10-3 (CRF01)", "format": "cell-based", "conditions": "Table 1; AE-X4; TZM-bl cells, 48 h, luciferase; means of two experiments"}, "HIV-1 pTHRO.c/2626": {"system": "HIV-1 pTHRO.c/2626", "format": "cell-based", "conditions": "Table 1; T/F B-R5; TZM-bl cells, 48 h, luciferase; means of two experiments"}, "HIV-1 VI820": {"system": "HIV-1 VI820", "format": "cell-based", "conditions": "Table 1; A-X4R5; TZM-bl cells, 48 h, luciferase; means of two experiments", "in_short": "as §1"}, "HIV-1 SF162": {"system": "HIV-1 SF162", "format": "cell-based", "conditions": "Table 1; B-R5; TZM-bl cells, 48 h, luciferase; means of two experiments", "in_short": "as §1"}, "HIV-1 pREJO.c/2864 cl2": {"system": "HIV-1 pREJO.c/2864 cl2", "format": "cell-based", "conditions": "Table 1; T/F B-R5; TZM-bl cells, 48 h, luciferase; means of two experiments"}, "HIV-1 MN": {"system": "HIV-1 MN", "format": "cell-based", "conditions": "Table 1; B-X4; TZM-bl cells, 48 h, luciferase; means of two experiments", "in_short": "as §1"}, "HIV-1 NL4.3": {"system": "HIV-1 NL4.3", "format": "cell-based", "conditions": "primary CD4 T cells infected with NL4.3, co-culture with autologous target cells, Gag+ targets by flow cytometry"}, "SHIV162P3 [2]": {"system": "SHIV162P3", "test": "Vaginal challenge of macaques with SHIV162P3", "format": "in vivo, cynomolgus macaques (Macaca fascicularis)", "conditions": "for protection: 2 ml vaginally 1 h before ~10 AID50 SHIV162P3 in 50% human seminal plasma, 6 animals", "procedure": "SHIV162P3 was obtained from the NIH AIDS Research and Reference Reagent Program[57][58] and mixed with 50% human seminal plasma. This mixture was used at 10 animal infectious doses 50% (AID50) to vaginally infect 18 naïve female cynomolgus macaques, which had been pre-treated with Depo-Provera 4–5 weeks before the challenge. One hour before challenge, six macaques received an intravaginal dose of 2 mL of mCD4.1-PS1 containing HEC gel at 144 μM. Six other macaques received the same dose of HEC gel containing 600 μM of mCD4.1-PS1 and the other six macaques were dosed with HEC gel without mCD4.1-PS1 (placebo group). Blood was collected at different time points after challenge to measure plasma viremia by a quantitative RT-PCR assay using primers amplifying the gag regions of SIVmac251. The detection limit of this assay is 60 RNA copies/mL and the quantification limit is 111 RNA copies/mL. For animals with undetectable viremia, lymph nodes were sampled on week 9 after challenge to measure the SHIV DNA copy numbers by quantitative PCR. Detection limit for this assay is 10 copies per million of cells. Anti-SHIV binding antibodies were measured in serum using standard commercial ELISA for the detection of HIV-1 and HIV-2 antibodies (Genscreen, Bio-Rad). Animals were considered negative if tested negative for plasma viremia and antibodies over the course of the study (11 weeks of follow-up after challenge) and negative for proviral DNA in lymph nodes."}, "SHIV162P3 [3]": {"system": "SHIV162P3", "format": "cell-based, SHIV", "conditions": "Table 1; B-R5; TZM-bl cells, 48 h, luciferase; means of two experiments", "in_short": "as §1"}}, "note": "“And” between values parts separate entries of the source, which are not always exact repeats. Identical values can stand only once. Like-named read-outs stand apart in the source and are kept apart here."}
{"smiles": "CC(C)C[C@@H]1NC(=O)CNC(=O)[C@H](CC(C)C)NC(=O)[C@H](CO)NC(=O)[C@H](CO)NC(=O)[C@@H]2CSSC[C@@H](C(=O)N[C@H](C(N)=O)C(C)C)NC(=O)[C@H](C)NC(=O)[C@@H]3CSSC[C@H](NC(=O)[C@H](CCCCNC(=O)CCOCCOCCNC(=O)CCN4C(=O)CC(SCCC(=O)NCCCC(=O)N[C@@H](CO)C(=O)N[C@@H](Cc5ccc(OS(=O)(=O)O)cc5)C(=O)N[C@@H](CC(=O)O)C(=O)N[C@@H](Cc5ccc(OS(=O)(=O)O)cc5)C(=O)N[C@@H](CO)C(=O)N[C@@H](Cc5ccc(OS(=O)(=O)O)cc5)C(=O)N[C@@H](CC(=O)O)C(=O)N[C@@H](Cc5ccc(OS(=O)(=O)O)cc5)C(=O)N[C@@H](CO)C(=O)N[C@@H](Cc5ccc(OS(=O)(=O)O)cc5)C(=O)N[C@@H](CC(=O)O)C(=O)N[C@@H](Cc5ccc(OS(=O)(=O)O)cc5)C(=O)N[C@@H](CO)C(=O)O)C4=O)NC(=O)[C@H](Cc4c[nH]cn4)NC(=O)[C@H](CC(C)C)NC(=O)[C@H](CC(N)=O)NC(=O)CCSSC[C@H](NC(=O)[C@H](CCCNC(=N)N)NC(=O)CNC(=O)[C@H](CC(C)C)NC1=O)C(=O)N[C@@H](C)C(=O)NCC(=O)N[C@@H](CO)C(=O)N[C@@H](Cc1ccc(-c4ccccc4)cc1)C(=O)N3)C(=O)N[C@@H](CCC(N)=O)C(=O)N[C@@H](CC(C)C)C(=O)N[C@@H](CCCNC(=N)N)C(=O)N2", "note": "(stereo partly shown) [mCD4.1-PS1]", "values": [{"measurement": "CC50", "setting": "TZM-bl cells", "value": ">37500", "unit": "nM"}, {"measurement": "stability on storage in HEC gel", "setting": "[1]", "value": "stable for one year"}, {"measurement": "IC50", "setting": "HIV-1 IIIB", "value": 0.013, "unit": "nM"}, {"measurement": "IC50", "setting": "HIV-1 Ca10-3 (CRF01)", "value": 0.57, "unit": "nM"}, {"measurement": "IC50", "setting": "HIV-1 pTHRO.c/2626", "value": 91, "unit": "nM"}, {"measurement": "IC50", "setting": "HIV-1 VI820", "value": 25, "unit": "nM"}, {"measurement": "IC50", "setting": "HIV-1 SF162", "value": 0.11, "unit": "nM"}, {"measurement": "IC50", "setting": "HIV-1 pREJO.c/2864 cl2", "value": 0.66, "unit": "nM"}, {"measurement": "IC50", "setting": "HIV-1 MN", "value": 0.09, "unit": "nM"}, {"measurement": "IC50", "setting": "HIV-1 NL4.3; 48 h, read-out: IC50 (nM) 48h, cell-cell transmission", "value": 0.2, "unit": "nM"}, {"measurement": "IC50", "setting": "HIV-1 NL4.3; 72 h, read-out: IC50 (nM) 72h, cell-cell transmission", "value": 0.2, "unit": "nM"}, {"measurement": "animals protected (SHIV RNA negative and seronegative)", "setting": "SHIV162P3 [2]; HEC gel at 144 μM, 2 ml vaginally 1 h before challenge", "value": "3 out of 6 and 3/6"}, {"measurement": "protection", "setting": "SHIV162P3 [2]; HEC gel at 144 μM, 11 weeks follow-up", "value": 50, "unit": "%"}, {"measurement": "animals protected", "setting": "SHIV162P3 [2]; HEC gel at 600 μM, 2 ml vaginally 1 h before challenge", "value": "5/6"}, {"measurement": "protection", "setting": "SHIV162P3 [2]; HEC gel at 600 μM, Fisher exact test p = 0.0152 vs placebo", "value": 83, "unit": "%"}, {"measurement": "IC50", "setting": "SHIV162P3 [3]", "value": 36, "unit": "nM"}]}
